## Library screen at single concentrations

Values are the deposited “Percent Effect”, in %.
How 0% and 100% were set is not recorded. Most values in the screen are low, and negative values occur.
The entries come from a sample that favours strong results.
Two or more numbers in one place are separate tests of the same structure; such repeats can differ widely.
A dash means the value is not listed here; it may have been measured.

Mtb glucose medium: 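Phenotypic screen: M. tuberculosis growth, glucose 7H9 medium, 3 days; the read-out is not stated. Tested at 50 µM. Higher reads as more growth inhibition (inferred: compounds with an IC50 in retests scored well above the rest). About 69,000 compounds were tested under these conditions; 1.1% (about 760) showed 50% or more at least once.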
Mtb cholesterol medium: 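Whole-cell growth test on Mycobacterium tuberculosis, read after 4 days in a medium based on cholesterol and the lipid DPPC; the read-out is not stated. Compounds at 50 µM. The record gives no direction; compounds that gave an IC50 in retests scored well above the rest, so higher reads as more growth inhibition. Size under these conditions: about 69,000 compounds, about 370 of them at 50% or above in at least one test.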

compound	Mtb glucose medium	Mtb cholesterol medium
[H][C@]12CC[C@]([H])(CN(S(=O)(=O)c3cccnc3)C1)N(Cc1ccccn1)C2	-2.536%	-
OC(CN1CCN(c2ncccn2)CC1)c1cccc(F)c1 (stereo not drawn)	24.27%	-
Cc1nc(CSCCC(=O)Nc2cccc(N3CCNC3=O)c2)cs1	-0.6651% and 71.79%	-
CCc1cnc(N2CCC3(CCN(Cc4cccc(C)c4)C3=O)C2)nc1 (stereo not drawn)	10.97%	-
CN1CCN(C(=O)CC2CCN(CCc3ccccn3)CC2)CC1	14.97%	-4.162%
Cc1ccc(NC2CCN(C(=O)C(C(C)C)n3cncn3)CC2)nn1 (stereo not drawn)	7.513% and -5.027%	-
Cl.Fc1ccc(F)c(CN2CCC(c3cc4ncccc4cn3)CC2)c1	79.43%	59.49%
CN(Cc1cccc(-n2cccn2)c1)Cc1cccs1	8.374%	13.67% and 28.62%
CN(C)[C@H]1C[C@@H](Cc2cc(CO)on2)C1(C)C	15.7% and -0.2501%	-
Cc1ccccc1Cn1nnc2cc3c(cc2c1=O)OCCO3	-7.333%	-
O=C1NCC2(CCCN(C(=O)c3c[nH]nc3-c3cccs3)C2)O1 (stereo not drawn)	97.71% and -10.44%	-
Cc1ccc(CN(CCCN2CCOCC2)Cc2cncn2C)o1.O=C(O)CC(O)(CC(=O)O)C(=O)O	23.3%	-
CCS(=O)(=O)N1CCN(c2cc(-n3cnc(C)c3C)nc(C)n2)CC1	50.4%	-
CC(C)N(CCSc1ncnc2[nH]ncc12)C(C)C	22.77%	-1.475%
CN(C)CCN(C)c1ccc(-c2nc(COc3ccccc3)no2)cn1	41.9%	51.64%
CS(=O)(=O)CCSc1nnc(Cc2ccccc2F)o1	29.31%	-7.005% and 11.47%
CCCn1ccnc1CN1CCCC1c1cccc(-n2ccnc2)n1 (stereo not drawn)	18.86%	-
Cc1cc(C(=O)NCc2csc(N(C)C)n2)c2ccc(C)c(C)c2n1	86.54%	67.14%
Cc1nccn1-c1cc(CNS(=O)(=O)N2CCCC(C)C2)ccn1 (stereo not drawn)	-35.57%	-8.152%
Cc1nc(NC(=O)COCC2CC2)ccc1Br	43.64%	-
COc1ccc(CNc2cccnc2-n2cccn2)cc1OC	-3.492% and 11.43%	8.488%
CCC(CO)NCc1ccc(-c2ccccc2F)o1 (stereo not drawn)	4.278% and 29.07%	28.98%
Fc1ccc(F)c(CN2CCC(c3cnccn3)CC2)c1	26.95%	17.51%
COc1ccnc(CN2CCCC(CCc3ccc(F)cc3)C2)c1OC (stereo not drawn)	67.17% and 55.65%	-
Cc1cccc(N2CCN(CCS(=O)(=O)c3ccc(Br)cc3)CC2)c1C	56.95%	-
CN(Cc1cnn(C)c1)C(=O)NCc1cc(Br)cs1	6.944%	0.468%
CCCc1ccc2oc(C(=O)N3CCCN(C)CC3)c(C)c2c1	48.7%	38.69%
NS(=O)(=O)c1cccnc1Nc1c(Cl)cccc1Cl	-	-45.77%
CC(C)(C)c1noc(CCC(=O)N2CCN(Cc3ccc(Cl)s3)CC2)n1	-8.603%	-
Cc1nc(N2CCN(S(C)(=O)=O)CC2)cc(-n2cnc(C)c2C)n1	19.76%	-
COc1cc(C)nc(N2CCN(C(=O)c3ccc(Cl)o3)CC2)n1	39.96%	-
CNC(=O)CN1CCCC1c1ccccc1Br (stereo not drawn)	26.17%	-
COCCN1CCC(CN(C)c2ncnc3c2c(C)nn3C)C1 (stereo not drawn)	-	-13.18%
Cc1ccc2nc(CN(C)Cc3n[nH]c4c3CCCCC4)[nH]c2c1C	54.78%	-
COC(=O)c1ccc(C(=O)NCC2(O)CCOCC2)cc1	-8.625%	-
Cc1cc(C)nc(NCCSc2cnn[nH]2)n1	38%	-
CCc1c(C)n(CCC#N)c2nc3ccccc3n2c1=O	-17.25% and 60.58%	-
Cc1cccc(N2CCC3(CCCC(=O)N3)CC2)n1.O=C(O)C(F)(F)F	-	73.8%
O=C(Nc1cccnc1)N1CCC(n2ccc(C(F)(F)F)n2)CC1	52.72% and 39.35%	-
COc1ccc(C(=O)CCc2nc(C3CC3)no2)cc1	22.64%	47.13%
CC(Nc1ccc2c(c1)CCC2)c1nc(C2CC2)no1 (stereo not drawn)	40.23%	57.35%
O=C(NCc1ccco1)c1cc[n+]([O-])cc1	0.3186%	16.01% and 9.244%
CCn1cc(CN(C)S(=O)(=O)c2ccccc2)cn1	26.86%	-
CCc1nnsc1C(=O)N(C)Cc1ccc(Br)o1	-3.194%	-
O=C(NCC1COCCO1)c1csc(Cc2ccccc2)n1 (stereo not drawn)	15.15%	-
Clc1ccc(COCC2CCN(Cc3ccccn3)CC2)cc1.O=C(O)C(=O)O	49.03%	64.36%
O=C(c1cc(COc2ccc3c(c2)OCO3)[nH]n1)N1CCOCC1	-	0.07057%
COc1ccc(CNC(Cc2cccs2)c2nc(C)c(C)s2)cc1OC.Cl (stereo not drawn)	13.95%	-
CCCNc1ncc(CN2CCOC(Cc3cccc(F)c3)C2)cn1 (stereo not drawn)	-17.44%	-10.88%
N#CCCCn1nnnc1Cc1ccc(Br)cc1	66.16%	32.64%
CNc1cc(C)nc(NCc2cc(C)cc3c(C)c(C)[nH]c23)n1	60.92% and 65.02%	72.99%
CC(=O)N1CCCC(c2cccc(-n3ccnc3)n2)C1 (stereo not drawn)	10.81%	6.652%
c1ccc(CCCN2CCCC(Nc3cnc4ccccc4n3)C2)cc1 (stereo not drawn)	50.6%	-
Cc1noc(CCCC(=O)NC(C)c2ccccn2)n1 (stereo not drawn)	-8.147%	-
CNC(=O)c1cccc(CCNc2ccccn2)c1	-4.418% and 4.866%	-7.744%
c1ccc(Cc2cncc(C3CCCN3C3CCOCC3)n2)cc1 (stereo not drawn)	-20.18%	1.188% and -0.1312%
CN1CCc2nc(C3CCCN(S(=O)(=O)c4ccccc4)C3)ncc2C1 (stereo not drawn)	26%	-
COCCSCC(=O)NCc1ccc(N(C)C)cc1	23.35%	-
CN(Cc1ccon1)C(=O)CN1C(=O)OC(C)(C)C1=O	0.7899% and 7.97%	-
O=C(Nc1ccc(F)c(Cl)c1)N1CCCN([C@H]2COC[C@@H]2O)CC1	-20.39%	0.7283%
COCCCNC(=O)c1cc(C(C)C)nc(N2CCCCCC2)n1	-16.81%	-
Cc1ccccc1OCC(O)CN1CCC(Cn2cccn2)CC1 (stereo not drawn)	2.08%	-
O=C(Nc1ccccc1OC1CCOC1)c1[nH]nc2c1CCCC2 (stereo not drawn)	50.7%	-
Cc1ccc(NC(=O)c2ncc(C(N)=O)cc2Cl)cc1F	78.71%	-
NC1CCN(S(=O)(=O)c2ccc(C(=O)N3CCSCC3)cc2)C1 (stereo not drawn)	14.9% and -6.974%	-
Cc1ccc(N2N=C(C(=O)O)S(=O)(=O)c3cccnc32)cc1	34.61%	1.425%
Cc1nc2ccccc2nc1CN(C)CC1CCCN1c1cccnn1 (stereo not drawn)	5.694%	-
Cc1ccc(S(=O)(=O)N2CCOc3ccccc32)cc1C(=O)O	-36.04%	-
Cc1nc2c(c(N3CC=CC3)n1)CCN(Cc1ccoc1)CC2	-19.58%	-39.11%
CC(C)c1nc(N2CCC(N3CCCC(O)C3)CC2)c2cnn(C)c2n1 (stereo not drawn)	19.4%	-
Cc1cc(CN2CCN(C(=O)Nc3cccnc3)CC2)on1	-5.607%	-
Cl.Cl.Clc1cccc(C[C@@H]2NCCC[C@@H]2Nc2ccccc2)c1	111.4%	105.7%
CN(C)CCNC(=O)C1Cc2nc(-c3ccccc3)sc2N1CC1CC1.O=C(O)C(F)(F)F (stereo not drawn)	60.4%	-
COCCN(C)CC1CCCN1S(=O)(=O)Cc1ccccc1F (stereo not drawn)	-29.96% and -5.393%	-
O=C(NCc1cc(O)ncn1)C1CCOc2ccccc2C1 (stereo not drawn)	-	-16.06%
N#Cc1ccc(N2CCC(OCCc3ccccc3)CC2)nc1	52.02%	-
Cc1cc(N2CCCC(c3[nH]ncc3Cc3ccccc3)C2)nc(N)n1 (stereo not drawn)	56.2%	-
[H][C@]12CCN(C(=O)c3cc(C)oc3C)C[C@@]1([H])OCCN(c1ncccn1)C2	-19.39%	-

The last 6 entries again:

- CN(C)CCNC(=O)C1Cc2nc(-c3ccccc3)sc2N1CC1CC1.O=C(O)C(F)(F)F (stereo not drawn) | Mtb glucose medium: 60.4%
- COCCN(C)CC1CCCN1S(=O)(=O)Cc1ccccc1F (stereo not drawn) | Mtb glucose medium: -29.96% and -5.393%
- O=C(NCc1cc(O)ncn1)C1CCOc2ccccc2C1 (stereo not drawn) | Mtb cholesterol medium: -16.06%
- N#Cc1ccc(N2CCC(OCCc3ccccc3)CC2)nc1 | Mtb glucose medium: 52.02%
- Cc1cc(N2CCCC(c3[nH]ncc3Cc3ccccc3)C2)nc(N)n1 (stereo not drawn) | Mtb glucose medium: 56.2%
- [H][C@]12CCN(C(=O)c3cc(C)oc3C)C[C@@]1([H])OCCN(c1ncccn1)C2 | Mtb glucose medium: -19.39%

The values are deposited in ChEMBL (CHEMBL3988442, “University of Dundee, Small-Polar-MMV Screening Library” (2021)).